Compound potency records, mixed from different reports. Data source: NIAID ChemDB in PubChem.

All rows: tests in culture; organism: Mycobacterium tuberculosis

MIC50, MIC90 and the like: level of inhibition, or share of isolates inhibited. Blank or dashed fields: not listed here. Lines come from different laboratories, so protocols vary. Inhibition is in % at the dose shown (toxicity tests: loss of growth or viability). a–b is a range or a potency band. MIC bound: limit read from a one-dose screen.

SMILES	read by	measure	strain or isolate	tested at	mutations	result
Cc1ccc(C2=NNc3c4ccccc4c4c5cc(C)ccc5nc-4n3C2)cc1	broth dilution / resazurin	MIC	H37Rv	-	-	12.5 µg/mL
Nc1nc(N)c(N=Nc2ccc(S(=O)(=O)Nc3ccccn3)cc2)c(=O)[nH]1	BACTEC	inhibition	H37Rv	12.5 µg/mL	-	16%
N#Cc1ccc(/C=C/C(=O)NN)cc1	-	MIC	BCG	-	-	5 µg/mL
Nc1ncnc2c1ncn2[C@H]1C=C[C@@H](CO)O1	BACTEC	MIC bound	H37Rv	-	-	>12.5 µg/mL
N#CC(Nc1ccccc1Cl)c1ccc(OCc2nc3ccccc3[nH]2)cc1	resazurin	inhibition	H37Rv	6.25 µg/mL	-	91%
O=C(CN1CC1)Nc1ccc(NC(=O)CN2CC2)cc1	BACTEC	inhibition	H37Rv	12.5 µg/mL	-	-6%
C=CCOc1cc2oc3cc(O)c(CCC(C)C)c(O)c3c(=O)c2c(CCC(C)C)c1OC	resazurin	MIC	M8	-	-	1.56 µg/mL
N#CC(Nc1ccc(Cl)cc1)c1ccc(OCc2nc3ccccc3[nH]2)cc1	resazurin	inhibition	H37Rv	6.25 µg/mL	-	90%
O=C(O)c1cn(C2CCC2)c2cc(NC3CCC3)c([N+](=O)[O-])cc2c1=O	-	MIC50	ATCC 27294 (WT)	-	-	>200 µM
CO[C@H]1/C=C/O[C@@]2(C)Oc3c(C)c(O)c4c(O)c(c(/C=N/N5CCN(C)CC5)c(O)c4c3C2=O)NC(=O)/C(C)=C\C=C\[C@H](C)[C@H](O)[C@@H](C)[C@@H](O)[C@@H](C)[C@H](OC(C)=O)[C@@H]1C	-	MIC	R506	-	-	100 µM
COc1ccc2[nH]c3c(c2c1)c1ccccc1c1nnc(C(C)(C)C)n13	broth dilution / resazurin	MIC	H37Rv	-	-	6.25 µg/mL
N#CC(Nc1cccc(F)c1)c1ccc(OCc2nc3ccccc3[nH]2)cc1	resazurin	MIC	H37Rv	-	-	3.12 µg/mL
O=C(Cc1csc2nc(-c3ccccc3)cn12)N/N=C/C=C/c1ccc([N+](=O)[O-])o1	-	inhibition	H37Rv	12.5 µg/mL	-	87%
COc1ccc(CCN2C(=O)C(=O)N(C(C)C)C2=O)cc1OC	BACTEC	inhibition	H37Rv	12.5 µg/mL	-	0%
NNC(=O)/C=C/c1ccc(Br)cc1	-	MIC	BCG	-	-	5 µg/mL
COc1ccc(-c2nc(N3CCOCC3)[nH]c(=O)c2C#N)cc1	-	MIC	H37Ra	-	-	>50 µg/mL
CC1=C(CO)C(=O)O[C@H]([C@@H](C)[C@H]2CC[C@H]3[C@@H]4C[C@H]5O[C@]56[C@@H](O)C(N5CC5)=CC(=O)C6(C)[C@H]4CC[C@]23C)C1	BACTEC	inhibition	H37Rv	12.5 µg/mL	-	19%
COc1cccc(/C=N/NC(=O)Cc2csc3nc(-c4ccccc4)cn23)c1	-	MIC	H37Rv	-	-	>12.5 µg/mL
NNC(=O)c1ccncc1	resazurin	MIC	M5	-	MDR	>2 µg/mL
Cc1c(CN2CCSCC2)cc(-c2ccccc2)n1-c1ccccc1F	-	MIC	103471	-	-	8 µg/mL
N=C(N)c1ccc(-c2ccc(-c3ccc(C(=N)N)cc3)o2)cc1	BACTEC	MIC bound	H37Rv	-	-	>12.5 µg/mL
Cc1cc(-c2cc3c(cc2F)c(=O)c(C(=O)O)cn3C2CC2)cc(C)n1	-	MIC	1024-8	-	-	2 µg/mL
O=C(Cc1csc2nc(-c3ccccc3)cn12)N/N=C/c1ccc(C(=O)O)cc1	-	inhibition	H37Rv	12.5 µg/mL	-	0%
CCOP(=O)(OCC)/C(C#N)=C\c1cccn1N(C)C	BACTEC	inhibition	H37Rv	12.5 µg/mL	-	4%
CC(=O)Oc1cc2oc3cc(O)c(CC=C(C)C)c(O)c3c(=O)c2c(CC=C(C)C)c1C(C)=O	resazurin	MIC	H37Ra	-	-	12.5 µg/mL
CCOC(=O)CNC(=O)C(=[N+]=[N-])C(=O)COc1ccccc1	BACTEC	MIC bound	H37Rv	-	-	>12.5 µg/mL
CCN(CC)CCCC(C)Nc1nc(-c2cccnc2)c(C#N)c(=O)[nH]1	-	MIC	H37Ra	-	-	>50 µg/mL
CO[C@H]1/C=C/O[C@@]2(C)Oc3c(C)c(O)c4c(O)c(c(/C=N/N5CCN(C6CCCC6)CC5)c(O)c4c3C2=O)NC(=O)/C(C)=C\C=C\[C@H](C)[C@H](O)[C@@H](C)[C@@H](O)[C@@H](C)[C@H](OC(C)=O)[C@@H]1C	-	MIC	-	-	-	0.08 µg/mL
CO[C@H]1/C=C/O[C@@]2(C)Oc3c(C)c(O)c4c(O)c(c(/C=N/N5CCN(C)CC5)c(O)c4c3C2=O)NC(=O)/C(C)=C\C=C\[C@H](C)[C@H](O)[C@@H](C)[C@@H](O)[C@@H](C)[C@H](OC(C)=O)[C@@H]1C	resazurin	MIC	M6	-	-	>2 µg/mL
C[CH2][Sn]([Cl])([Br])[CH2]C.c1cnc2c(c1)ccc1cccnc12	-	MIC	H37Rv	-	-	12.5 µg/mL
CN(C)c1ccc(-c2nc(NCc3ccccc3)[nH]c(=O)c2C#N)cc1	-	MIC	H37Ra	-	-	>50 µg/mL
CC(=O)NN1C(=O)c2ccccc2C1=O	BACTEC	inhibition	H37Rv	12.5 µg/mL	-	-4%
CCCCCOc1cc2oc3cc(O)c(CCC(C)C)c(O)c3c(=O)c2c(CCC(C)C)c1OC	resazurin	MIC	H37Ra	-	-	>200 µg/mL
CN(C)c1ccc2[nH+]c3c(C(=O)O)cc(=O)c(O)c-3oc2c1	BACTEC	MIC bound	H37Rv	-	-	>12.5 µg/mL
COc1cccc(-n2cc(Cn3nc(-c4ccccc4)c4c3CCN(C(=O)Nc3ccccc3)C4)nn2)c1	visual reading	MIC	H37Rv	-	-	98.89 µM
Cc1c(CN2CCSCC2)cc(-c2ccccc2)n1-c1cccc2ccccc12	-	MIC	103471	-	-	>16 µg/mL
COC(=O)CCC(=O)CC(=O)C1=NS(=O)(=O)c2nc(S(N)(=O)=O)c(Cl)cc2N1	resazurin	MIC bound	H37Rv	-	-	>6.25 µg/mL
CN1CCN(c2nc(-c3cccnc3)c(C#N)c(=O)[nH]2)CC1	-	MIC	H37Ra	-	-	>50 µg/mL
O=C(O)CCCCCCCCCCCCC1C=CCC1	GFP	MIC	H37Rv	-	-	9.82 µM
CC(=O)NC1C(O)OC(CO)C(OC2OC(CO)C(O)C(O)C2NC(=O)NCCCCCCNC(=O)n2cc(F)c(=O)[nH]c2=O)C1O	BACTEC	inhibition	H37Rv	12.5 µg/mL	-	97%
Cc1ccc(-c2nc(NCCCN3CCOCC3)[nH]c(=O)c2C#N)cc1	-	MIC	H37Ra	-	-	>50 µg/mL
CC(C)(C)n1cc(C(=O)O)c(=O)c2cc([N+](=O)[O-])c(N3CCSCC3)cc21	-	MIC90	ATCC 27294 (WT)	-	-	100 µM
S=C(Nc1ccccn1)c1ccccn1	resazurin	MIC bound	H37Rv	-	-	>6.25 µg/mL
CCCNc1nc(-c2cccnc2)c(C#N)c(=O)[nH]1	-	MIC	H37Ra	-	-	25–50 µg/mL
COc1ccc(CCN)cc1	-	MIC	BCG	-	-	100 µg/mL
COc1ccc2[nH]c3nc(-n4nc(-c5ccccc5)c5ccccc5c4=O)c4ccccc4c3c2c1	broth dilution / resazurin	MIC	H37Rv	-	-	12.5 µg/mL
N#Cc1c(-c2cccnc2)nc(NCCCN2CCOCC2)[nH]c1=O	-	MIC	H37Ra	-	-	>50 µg/mL
COc1ccc2[nH]c3nc(-n4[nH]c(=O)c5ccccc5c4=O)c4ccccc4c3c2c1	broth dilution / resazurin	MIC	H37Rv	-	-	3.125 µg/mL
CCCCCOc1cc2oc3cc(O)c(CCC(C)C)c(O)c3c(=O)c2c(CCC(C)C)c1C(C)=O	resazurin	MIC	H37Ra	-	-	>200 µg/mL
CC1=NN(c2cccc(S(=O)(=O)O)c2)C(=O)C1	resazurin	MIC bound	H37Rv	-	-	>6.25 µg/mL
Cc1c(CN2CCN(C)CC2)cc(-c2ccccc2F)n1-c1ccccc1F	-	MIC	103471	-	-	8 µg/mL
O=C(O)c1cn(-c2ccc(F)cc2F)c2cc(Nc3ccc(F)cc3F)c([N+](=O)[O-])cc2c1=O	-	MIC50	ATCC 27294 (WT)	-	-	>200 µM
CO[C@H]1/C=C/O[C@@]2(C)Oc3c(C)c(O)c4c(O)c(c(/C=N/N5CCN6CCCCC6C5)c(O)c4c3C2=O)NC(=O)/C(C)=C\C=C\[C@H](C)[C@H](O)[C@@H](C)[C@@H](O)[C@@H](C)[C@H](OC(C)=O)[C@@H]1C	-	MIC	-	-	-	0.08 µg/mL
Cc1c(CN2CCSCC2)cc(-c2ccc(F)cc2)n1-c1ccc(Cl)cc1	-	MIC	103471	-	-	2 µg/mL
O=C(Nc1ccccc1)N1CCc2c(c(-c3ccccc3)nn2Cc2cn(-c3ccccc3[N+](=O)[O-])nn2)C1	visual reading	MIC	H37Rv	-	-	192.1 µM
CC(N=c1cc2n(-c3ccc(Cl)cc3)c3ccccc3nc-2cc1Nc1ccc(Cl)cc1)c1ccccc1	-	MIC	CS-R	-	-	<0.1 µg/mL
O=C(Nc1ccccc1)N1CCc2c(c(-c3ccccc3)nn2Cc2cn(-c3ccc(Cl)cc3Cl)nn2)C1	visual reading	MIC	H37Rv	-	-	184 µM
Clc1ccc(C2=NNc3c4ccccc4c4c5cc(Cl)ccc5nc-4n3C2)cc1	broth dilution / resazurin	MIC	H37Rv	-	-	6.25 µg/mL
Oc1cc(Cl)ccc1Oc1ccc(Cl)cc1Cl	-	MIC	M307 (KATG S315T)	-	-	20 µM
O=C(Cc1csc2nc(-c3ccccc3)cn12)N/N=C/c1ccccc1O	-	MIC	H37Rv	-	-	>12.5 µg/mL
CCn1cc(C(=O)O)c(=O)c2cc(F)c(N3CCNC(C)C3)c(F)c21	-	MBC	5 strains (wild type)	-	-	4 µg/mL
O=[N+]([O-])/C=C/c1cc2c(ccc3ccccc32)[nH]1	resazurin	MIC	H37Rv	-	-	6.25 µg/mL
O=C(O)c1cn(CCF)c2cc(NCCF)c([N+](=O)[O-])cc2c1=O	-	MIC50	ATCC 27294 (WT)	-	-	77 µM
N#CC(Nc1cc(F)ccc1F)c1ccc(OCc2nc3ccccc3[nH]2)cc1	resazurin	inhibition	H37Rv	6.25 µg/mL	-	98%
Cc1ccc(-c2nc(N3CCc4ccccc4C3)[nH]c(=O)c2C#N)cc1	-	MIC	H37Ra	-	-	>50 µg/mL
COc1ccccc1/C=N/NC(=O)Cc1csc2nc(-c3ccccc3)cn12	-	inhibition	H37Rv	12.5 µg/mL	-	73%
CCNc1cc2c(cc1[N+](=O)[O-])c(=O)c(C(=O)O)cn2CC	-	MIC50	ATCC 27294 (WT)	-	-	>200 µM
CCC1CCC2CN(/N=C/c3c4c(O)c5c(O)c(C)c6c(c5c3O)C(=O)[C@@](C)(O/C=C/[C@H](OC)[C@@H](C)[C@@H](OC(C)=O)[C@H](C)[C@H](O)[C@H](C)[C@@H](O)[C@@H](C)/C=C/C=C(/C)C(=O)N4)O6)CCN2C1	-	MIC	-	-	-	≤0.04 µg/mL
O=C(Nc1ccccc1)N1CCc2c(c(-c3ccccc3)nn2Cc2cn(-c3ccc(Br)c(C(F)(F)F)c3)nn2)C1	visual reading	MIC	H37Rv	-	-	161 µM
COc1ccc(/C=N/NC(=O)C[N+](C)(C)C)cc1OC	BACTEC	inhibition	H37Rv	12.5 µg/mL	-	-14%
O=C(O)c1cn(C2CCCCC2)c2cc(NC3CCCCC3)c(F)cc2c1=O	-	MIC50	ATCC 27294 (WT)	-	-	>200 µM
COc1c(OCCCCBr)cc2oc3cc(OCCCCBr)c(CCC(C)C)c(O)c3c(=O)c2c1CCC(C)C	resazurin	MIC	H37Ra	-	-	200 µg/mL
NC(=O)c1cnccn1	-	MIC	DHMH 444	-	-	300 µg/mL
O=C1OC(C[N+]2(Cc3ccc([N+](=O)[O-])o3)CCCCC2)CN1/N=C/c1ccc([N+](=O)[O-])o1	BACTEC	MIC	H37Rv	-	-	≥12.5 µg/mL
COc1ccc(C2=NNc3c4ccccc4c4c5cc(Cl)ccc5nc-4n3C2)cc1	broth dilution / resazurin	MIC	H37Rv	-	-	12.5 µg/mL
CC(C)Nc1cc2c(cc1[N+](=O)[O-])c(=O)c(C(=O)O)cn2C(C)C	-	MIC90	ATCC 27294 (WT)	-	-	22.6 µM
NNC(=O)/C=C/c1ccccc1[N+](=O)[O-]	-	MIC	BCG	-	-	50 µg/mL
Cc1ccc2[nH]c3nc(-n4nc(-c5ccccc5)c5ccccc5c4=O)c4ccccc4c3c2c1	broth dilution / resazurin	MIC	H37Rv	-	-	6.25 µg/mL
O=[N+]([O-])c1cc2c(nc3ccccn32)c2ccccc12	resazurin	MIC bound	H37Rv	-	-	>6.25 µg/mL
COc1ccc(/C=C/C(=O)NN)cc1OC	-	MIC	BCG	-	-	5 µg/mL
CN[C@@H]1[C@H](O[C@H]2[C@H](O[C@H]3[C@H](O)[C@@H](O)[C@H](N=C(N)N)[C@@H](O)[C@@H]3N=C(N)N)O[C@@H](C)[C@]2(O)C=O)O[C@@H](CO)[C@H](O)[C@H]1O	-	MIC	H37Rv	-	-	0.25 µg/mL